Experimental data from the supplement of paper PMC3578754.

Assays:
Assay in all cases: fold change of IC50 against reference virus; higher = more resistant
delavirdine = compound: CC(C)Nc1cccnc1N1CCN(C(=O)c2cc3cc(NS(C)(=O)=O)ccc3[nH]2)CC1 [delavirdine]
Method: (§1)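 Cell-culture drug susceptibility tests of virus bearing the reverse transcriptase of each isolate, gathered from many studies.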

tenofovir = compound: C[C@H](Cn1cnc2c(N)ncnc21)OCP(=O)(O)O [tenofovir]
Method: as §1

nevirapine = compound: Cc1ccnc2c1NC(=O)c1cccnc1N2C1CC1 [nevirapine]
Method: as §1

stavudine = compound: Cc1cn([C@H]2C=C[C@@H](CO)O2)c(=O)[nH]c1=O [stavudine]
Method: as §1

zidovudine = compound: Cc1cn([C@H]2C[C@H](N=[N+]=[N-])[C@@H](CO)O2)c(=O)[nH]c1=O [zidovudine]
Method: as §1

zalcitabine = compound: Nc1ccn([C@H]2CC[C@@H](CO)O2)c(=O)n1 [zalcitabine]
Method: as §1

abacavir = compound: Nc1nc(NC2CC2)c2ncn([C@H]3C=C[C@@H](CO)C3)c2n1 [abacavir]
Method: as §1

efavirenz = compound: O=C1Nc2ccc(Cl)cc2[C@@](C#CC2CC2)(C(F)(F)F)O1 [efavirenz]
Method: as §1

didanosine = compound: O=c1[nH]cnc2c1ncn2[C@H]1CC[C@@H](CO)O1 [didanosine]
Method: as §1

Test System | fold change of IC50 against reference virus (delavirdine) | fold change of IC50 against reference virus (tenofovir) | fold change of IC50 against reference virus (nevirapine) | fold change of IC50 against reference virus (stavudine) | fold change of IC50 against reference virus (zidovudine) | fold change of IC50 against reference virus (zalcitabine) | fold change of IC50 against reference virus (abacavir) | fold change of IC50 against reference virus (efavirenz) | fold change of IC50 against reference virus (didanosine)
HIV-1 isolate 1359 (reverse transcriptase changes: A98S K122E Q207E, study 121) | 2.1 | 1.2 | 1.6 | 1 | 1.1 | 1.1 | 1.1 | 1.2 | 1
HIV-1 isolate 1465 (reverse transcriptase changes: M41L K43N E44D D67N T69D A98S K103N V118I K122E I135V E138Q S162C G196E E203K Q207E H208Y L210W R211K T215Y V245A Q278H T286A P294S, study 121) | 9.2 | 5.9 | 26 | 6.7 | 2400 | 1.8 | 8.4 | 5.1 | 2.3
HIV-1 isolate 212 (reverse transcriptase changes: V35M A62V D86E K103R D123E D177K V179D M184V I202V Q207A R211K V241I A288G, study 12) | 17 | 0.4 | 10 | 0.7 | 0.3 | 2.5 | 3.8 | 11 | 1.9
HIV-1 isolate 1391 (reverse transcriptase changes: T39A K49R K65R Y115F V118I K122E Y127C I135T E169D Y181C F214L L228H A288S, study 121) | 17 | 1.5 | 52 | 0.9 | 0.4 | 1.8 | 6 | 0.5 | 1.8
HIV-1 isolate 217 (reverse transcriptase changes: T69D K122E F214L A272P K277R A376T A400T D460N S468T H483Y K512Q S519N, study 94) |  | 3 |  | 4 | 0.1 | 4.2 |  |  | 
HIV-1 isolate 1576 (reverse transcriptase changes: K102Q D123E Y181C I202V R211K T215Y A272P K277R T286A, study 121) | 6.1 | 0.6 | 85 | 1.3 | 1.4 | 0.9 | 1.3 | 1 | 1.1
HIV-1 isolate 1024 (reverse transcriptase changes: M41I D67N K103N M184V L210W T215Y K219N, study 15) | 104 | 2.3 | 53 | 2.8 | 270 | 2.5 | 10 | 17 | 2.6
HIV-1 isolate 602 (reverse transcriptase changes: M41L D67N V75M K122E L210W F214L T215Y A272P K277R, study 138) | 0.3 | 2.5 | 0.5 | 2.3 | 241 | 0.9 | 2.3 | 0.3 | 1.1
HIV-1 isolate 549 (reverse transcriptase changes: M41L D67N V118I K122E L210W F214L T215Y A272P K277R, study 138) | 0.1 | 5.6 | 0.3 | 6.9 | 2400 | 2.2 | 6.6 | 0.1 | 2.3
HIV-1 isolate 1488 (reverse transcriptase changes: V35T V60I K103N K122E I135T G196E Q207E, study 15) | 16 | 1.1 | 9 | 1.1 | 1.1 | 1.1 | 1 | 7.3 | 0.9
HIV-1 isolate 1565 (reverse transcriptase changes: K103N K122E M184V F214L A272P K277R, study 138) | 63.1 | 0.5 | 51.8 | 0.7 | 0.5 | 1.5 | 2.7 | 30.4 | 1.3
HIV-1 isolate 432 (reverse transcriptase changes: Y115F K122E F214L A272P K277R M357T A376T A400T N447S D460N S468T S519N, study 63) |  | 1.3 |  | 0.8 | 0.9 | 0.6 | 2.8 |  | 0.8
HIV-1 isolate 803 (reverse transcriptase changes: D67G S68G L74V Y115F K122Q D123E I135T I142V D177E M184V V189I G190E T200A T215F K219E V245E E297R, study 15) | 43 | 0.7 | ≥ 400 | 1.3 | 2.2 | 1.3 | 16 | 800 | 1.9
HIV-1 isolate 1479 (reverse transcriptase changes: S48T D67N T69N K70R K122E M184V G196E T215F D218E K219Q V245M A272P A288T E297K E312D, study 121) | 0.7 | 1.1 | 0.5 | 1.9 | 9.9 | 2.3 | 6.1 | 0.5 | 1.9
HIV-1 isolate 605 (reverse transcriptase changes: M41L K43N E44D D67N T69D A98S K103N V118I K122E I135V E138Q S162C G196E E203K Q207E H208Y L210W R211K T215Y Q278H T286A P294S, study 121) | 9.2 | 6.1 | 29 | 7.1 | 2400 | 2.2 | 7.3 | 5.6 | 2.4
HIV-1 isolate 497 (reverse transcriptase changes: K122E F214L A272P K277R M357T A376T A400T N447S D460N S468T S519N, study 63) |  | 0.9 |  | 0.8 | 0.8 | 0.9 | 0.9 |  | 0.8
HIV-1 isolate 1142 (reverse transcriptase changes: Y115F K122E M184V F214L A272P K277R M357T A376T A400T N447S D460N S468T S519N, study 63) |  | 0.9 |  | 0.9 | 0.7 | 2 | 9.8 |  | 2
HIV-1 isolate 1462 (reverse transcriptase changes: L74V K122E F214L A272P K277R M357T A376T A400T N447S D460N S468T S519N, study 63) |  | 0.6 |  | 1.1 | 0.4 | 1.6 | 2.1 |  | 1.5
HIV-1 isolate 121 (reverse transcriptase changes: K122E F214L A272P K277R A376T A400T D460N S468T H483Y K512Q S519N, study 94) |  | 1 |  | 1 | 1 | 1 |  |  | 1
HIV-1 isolate 1147 (reverse transcriptase changes: L74V K122E M184V F214L A272P K277R M357T A376T A400T N447S D460N S468T S519N, study 63) |  | 0.4 |  | 0.9 | 0.3 | 2.5 | 8.5 |  | 2.4
HIV-1 isolate 1149 (reverse transcriptase changes: K65R L74V K122E M184V F214L A272P K277R M357T A376T A400T N447S D460N S468T S519N, study 63) |  | 0.9 |  | 1.2 | 0.3 | 4.4 | 12 |  | 6.7
HIV-1 isolate 33 (reverse transcriptase changes: A62V V75I F77L F116Y K122E Q151M F214L A272P K277R A376T A400T D460N S468T H483Y K512Q S519N, study 94) |  | 0.8 |  |  | 38.8 | 7.2 |  |  | 
HIV-1 isolate 181 (reverse transcriptase changes: K65R K122E M184V F214L A272P K277R M357T A376T A400T N447S D460N S468T S519N, study 63) |  | 1.2 |  | 1 | 0.3 | 4.6 | 10 |  | 3.6
HIV-1 isolate 1001 (reverse transcriptase changes: K65R K122E F214L A272P K277R M357T A376T A400T N447S D460N S468T S519N, study 63) |  | 2.1 |  | 1.8 | 0.5 | 2.6 | 3 |  | 2.1
HIV-1 isolate 816 (reverse transcriptase changes: K20R E28K K32E V35R M41L E44D D67N K103N D123E I135M P157A K166R D177E M184V G196E T200A L210W R211K T215Y V245E E297K, study 15) | 21 | 4.3 | 76 | 3.2 |  | 3.2 | 5.9 | 28 | 1.8
HIV-1 isolate 232 (reverse transcriptase changes: K122E M184V F214L A272P K277R M357T A376T A400T N447S D460N S468T S519N, study 63) |  | 0.5 |  | 0.9 | 0.3 | 2 | 3.9 |  | 1.4
HIV-1 isolate 904 (reverse transcriptase changes: M41L A62V T69D V75T K101E D123E I135T I142V Y181C G190A L210W R211K T215Y L228R A272S K277R K281R I293V E297K Q334E, study 15) | 27 | 2.6 | ≥ 400 | 3.3 | 86 |  | 4.2 | 245 | 2.1
HIV-1 isolate 133 (reverse transcriptase changes: K102Q S162C K277R I293V R358K V435I S468P K550G, study 145) | 0.5 | 0.9 | 0.5 | 0.8 | 0.8 |  | 0.7 | 0.7 | 0.9
HIV-1 isolate 1089 (reverse transcriptase changes: K65R A98S K122E I135T M184V G196E F214L V245Q I293V E297K, study 134) | 0.5 | 1.1 | 0.6 | 1.2 | 0.3 |  | 9.1 | 0.4 | 3
HIV-1 isolate 1066 (reverse transcriptase changes: K70E K122E F214L A272P K277R A376T A400T D460N S468T H483Y K512Q S519N, study 94) |  | 1.2 |  | 1.1 | 0.5 | 0.7 |  |  | 1

Fold change is the IC50 on the isolate divided by the IC50 on a reference virus; 1 = unchanged, higher = more resistant. Changes are given against the subtype B consensus. No active / inactive call. The values were gathered from many studies (numbered anew) with different assays, which the source does not name. Most viruses are clinical isolates; some are laboratory strains or clones with known resistance changes. Isolates with mixed residues are left out; stretches that were not sequenced show no change. Round top values that many isolates share are read here as limits; other very high values and 0.1 may be limits too.
